Experiment [1] deals with influenza virus (A/California/07/2009). Nature of the experiment: In vivo anti-influenza virus activity in severe influenza DBA/2 mouse model. Conditions: DBA/2 mice, 1×10^4 PFU; zanamivir 5 mg/kg i.v. once daily, oseltamivir phosphate 20 mg/kg oral twice daily, 5 consecutive days.
In another experiment the test system is A/Vietnam/2004(H5N1). In words: In vitro anti-influenza virus activity (CPE inhibition) in infected MDCK cells.
Experiment [2] relates to A/California/04/2009(H1N1). The description is as above.
The next experiment deals with A/Shanghai/02/2013(H7N9). The description is as above.

Structures were worked out from names or drawings and are uncertain.

Take `CCOC(=O)C1=C[C@@H](OC(CC)CC)[C@H](NC(C)=O)[C@@H](N)C1`: the “survival of mice receiving positive control drugs” value in experiment [1] is “died”.

For `CCC(CC)[C@H](NC(C)=O)[C@@H]1[C@H](O)[C@@H](C(=O)O)C[C@H]1N=C(N)N`, the figures for the EC50 (in the experiment with A/Vietnam/2004(H5N1); in experiment [2]; with A/Shanghai/02/2013(H7N9)) were 300 nM, 122 nM and 88.9 nM, respectively.

The values are drawn from EP4847047A1, “CONJUGATE, PREPARATION METHOD THEREFOR, AND USE THEREOF” (dated 2026).
